The data set deals with mitochondria DNA. Type of data set: cell-based. As to conditions: CEM cells. The protocol: The CEM cells (5×10^4) cells were collected and freeze-thawed three times. The cell lysate was incubated with RNase (10 μg/ml) at 37° C. for 30 minutes. The sample was treated with proteinase K (100 μg/ml) at 55° C. for 1 hour. A 0.8 volume of supersaturated Nal (2.5 gNaI in 1 ml hot water) was added to the sample and heated at 90° C. for 10 minutes. The DNA was immobilized on nitrocellulose paper by using a slot blot apparatus (Schleicher & Schuell, Keene, NH). The mtDNA on the nitrocellulose paper was detected with a mtDNA specific probe as described previously (Chen, C. H., Cheng, Y. C., “relayed Cytotoxicity and Selective Loss of Mitochondria DNA in Cells Treated with the Anti-Human Immunodeficiency Virus Compound 2′,3′-Dideoxycytidine,” J. Biol. Chem. 264: 11934-11937, 1989).
Mitochondria DNA content was measured by slot blot hybridization analysis. […] Thus, D4C would be expected to have a mitochondria effect before the anti-HBV effect was achieved as the same phenomenon observed in treatment with ddC.

Take `Nc1ccn([C@H]2C[C@H](F)[C@@H](CO)O2)c(=O)n1` [3′-FddC, 3′-fluoro-2′,3′-dideoxycytidine]: the ED30/MtID30 is listed as 409.
The compound `Nc1ccn([C@H]2C=C[C@@H](CO)O2)c(=O)n1` [D4C, 2′,3′-didehydro-2′,3′-dideoxycytidine] showed an ED30/MtID30 of 11.
The same measure for `Nc1ccn([C@H]2CC[C@@H](CO)O2)c(=O)n1` [ddC, 2′,3′ dideoxycytidine]: 454.

The values are drawn from US20050192299A1, “Method of treating or preventing hepatitis B virus” (priority 1992, published 2005).
